## Positions that govern dimerization of the HIV-1 5' RNA

Sequence of the HIV-1 NL4-3 5' RNA, positions 1 to 437, as numbered in the source:
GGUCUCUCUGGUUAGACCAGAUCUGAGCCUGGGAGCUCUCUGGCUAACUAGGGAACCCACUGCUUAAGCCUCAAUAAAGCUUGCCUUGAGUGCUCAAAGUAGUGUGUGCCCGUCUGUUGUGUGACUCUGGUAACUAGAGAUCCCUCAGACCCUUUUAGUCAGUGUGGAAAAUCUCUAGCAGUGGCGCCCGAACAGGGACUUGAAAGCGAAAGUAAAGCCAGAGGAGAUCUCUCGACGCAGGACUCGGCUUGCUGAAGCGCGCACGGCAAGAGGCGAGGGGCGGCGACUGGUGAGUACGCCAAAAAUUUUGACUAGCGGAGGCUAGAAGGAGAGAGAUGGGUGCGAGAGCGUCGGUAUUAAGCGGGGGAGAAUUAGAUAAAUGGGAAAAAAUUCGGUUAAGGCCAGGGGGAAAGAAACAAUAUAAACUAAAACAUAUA

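Randomly mutated transcripts starting with one, two or three G (1G, 2G, 3G), capped or uncapped, were folded for 30 min at 37 °C. Monomer and dimer bands were cut from native gels after folding in high salt (300 mM KCl, 5 mM MgCl2) or low salt (40 mM KCl, 0.1 mM MgCl2). Kdimer compares mutation frequencies in monomer and dimer, corrected for sequencing errors.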

Values are log2 Kdimer, the median over the changes at each position: higher means that changes there hinder dimer formation, below 0 that they favour it.
One numbering serves 1G, 2G and 3G.
A position is written with its base.

position	1G capped high-salt	1G capped low-salt
U159	0.00	-0.08
C160	-0.50	-0.40
A161	0.02	-0.01
G162	0.07	-0.26
U163	0.09	0.12
G164	-0.16	0.02
U165	-0.05	-0.02
G166	-0.26	0.03
G167	-0.14	0.36
A168	0.07	0.28
A169	0.01	0.00
A170	0.11	0.00
A171	0.03	-0.04
U172	-0.16	0.48
C173	-0.48	-0.29
U174	-0.28	-0.53
C175	-0.32	-0.24
U176	-0.21	0.05
A177	0.11	-0.71
G178	0.11	0.18
C179	-0.39	-0.33
A180	-0.07	-0.16
G181	-0.29	-0.52
U182	0.24	0.23
G183	-0.23	0.12
G184	0.29	0.27

The last 2 entries again:

| position | 1G capped high-salt | 1G capped low-salt |
|---|---|---|
| G183 | -0.23 | 0.12 |
| G184 | 0.29 | 0.27 |

Source: Ye et al. 2022 (doi:10.1038/s41594-022-00746-2), supplementary data.